System: Mus musculus
Assay: Hepatotoxicity in ip dosed ddY mouse assessed as increase in liver weight and intra hepatic hemorrhages
Conditions: in vivo, strain ddY

Work on C/C=C1/C(=O)N[C@@H](C(=O)O)[C@H](C)C(=O)N[C@@H](CCCCNC(=N)N)C(=O)N[C@@H](/C=C/C(C)=C/[C@H](C)[C@H](Cc2ccccc2)OC)[C@H](C)C(=O)N[C@@H](C(=O)O)CCC(=O)N1C yielded an LD50 of 0.07 mg/kg.

— ChEMBL document CHEMBL1150561, “Nodularin-Har: a new nodularin from Nodularia” (2001)
